Reference: the supplement of paper PMC9931576
Residue numbers refer to the chain shown, from its start. Human monoclonal antibodies against the spike receptor-binding domain (heavy:light variable regions). IC50 against pseudoviruses bearing the spike of naturally observed variants; lower = stronger; >10 µg/ml means not reached at the top dose. No active / inactive call. The stated detection limit is 0.0005 µg/ml; values near or below 0.001 µg/ml lie at the floor of the assay.

Legend:
Assay in all cases: pseudovirus neutralization IC50; higher = weaker neutralization
[1] = molecular target: SARS-CoV-2 Omicron BA.1 spike pseudovirus
Experimental: (§1)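 Single-round VSV luciferase pseudovirus mixed with antibody dilutions for 1 h and put on Huh-7 cells for about a day; IC50 from the dose curve.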

[2] = molecular target: SARS-CoV-2 Omicron BA.2 spike pseudovirus
Experimental: as §1

[3] = molecular target: SARS-CoV-2 Omicron BA.2.75 spike pseudovirus
Experimental: as §1

[4] = molecular target: SARS-CoV-2 Omicron BA.2.75.2 spike pseudovirus
Experimental: as §1

[5] = molecular target: SARS-CoV-2 Omicron BA.5 spike pseudovirus
Experimental: as §1

[6] = molecular target: SARS-CoV-2 Omicron BM.1.1.1 spike pseudovirus
Experimental: as §1

[7] = molecular target: SARS-CoV-2 Omicron BQ.1.1 spike pseudovirus
Experimental: as §1

[8] = molecular target: SARS-CoV-2 Omicron BR.2 spike pseudovirus
Experimental: as §1

[9] = molecular target: SARS-CoV-2 Omicron CA.1 spike pseudovirus
Experimental: as §1

[10] = molecular target: SARS-CoV-2 Omicron XBB spike pseudovirus
Experimental: as §1

[11] = molecular target: SARS-CoV-2 early D614G spike pseudovirus
Experimental: as §1

B1: BD57-0257 (protein)
chain 1: QVQLVQSGAEVKRPGSSVKVSCTASGGSIGGTFTIFGINWVRQAPGQGLEWMGRIIPVPDITDTTQKFQGRVTFTADRSTSTAYMELSSLRSDDTAVYYCARDRGRFDYWGQGTLVTVSS
chain 2: DIVLTQTPLSLSVTPGQPASISCRSSQSLLHSDGETYLSWYLQRPSQPPQLLIYEVSNRFSGVPERFSGSGSGTDFTLKISRVEAEDVGVYYCMQSVQLRTFGQGTNLEIK
pseudovirus neutralization IC50 [1]: > 10 µg/mL
pseudovirus neutralization IC50 [2]: > 10 µg/mL
pseudovirus neutralization IC50 [3]: > 10 µg/mL
pseudovirus neutralization IC50 [4]: > 10 µg/mL
pseudovirus neutralization IC50 [5]: > 10 µg/mL
pseudovirus neutralization IC50 [6]: > 10 µg/mL
pseudovirus neutralization IC50 [7]: > 10 µg/mL
pseudovirus neutralization IC50 [8]: > 10 µg/mL
pseudovirus neutralization IC50 [9]: > 10 µg/mL
pseudovirus neutralization IC50 [10]: > 10 µg/mL
pseudovirus neutralization IC50 [11]: > 10 µg/mL

B2: BD57-0276 (protein)
chain 1: QVLLQESGPGLVRPSETLSLTCTVSGGSITNYYWNWIRQAPGQPPEWIGNVYHTGGTDYNPSLKSRVTITLDTSETQFSLRLSSVTAADTAVYYCARLGELTGDGYFDFWGHGALVTVSS
chain 2: DIQMTQSPSSLSASVGDRVSITCRASRYIGLYLNWYQQKPGKAPKLLISAASTLSSGVPSRFSGSGSGTDFTLTISSLQPEDFATYYCQQSYSTTPYTFGQGTNLEIK
pseudovirus neutralization IC50 [1]: > 10 µg/mL
pseudovirus neutralization IC50 [2]: > 10 µg/mL
pseudovirus neutralization IC50 [3]: > 10 µg/mL
pseudovirus neutralization IC50 [4]: > 10 µg/mL
pseudovirus neutralization IC50 [5]: > 10 µg/mL
pseudovirus neutralization IC50 [6]: > 10 µg/mL
pseudovirus neutralization IC50 [7]: > 10 µg/mL
pseudovirus neutralization IC50 [8]: > 10 µg/mL
pseudovirus neutralization IC50 [9]: > 10 µg/mL
pseudovirus neutralization IC50 [10]: > 10 µg/mL
pseudovirus neutralization IC50 [11]: > 10 µg/mL

B3: BD57-0382 (protein)
chain 1: EVQLVQSGADVKKPGESLRISCKGSGYTFTNYWIAWVRLMPGKGLEWMGIIYPDDSNTKYSPSFQGQVTVSVDKSISTAYLQWSSLKASDTAMYYCARYYDILTGSYRGGHVFDYWGQGTLVTVSS
chain 2: HSALTQPRTVSGSLGQSVTISCTGTSSNVGFNNHVSWYQLRPGKVPKVLIYEVYERPSGVPVRFSGSKSGNTASLTISALQAEDEADYYCCSYAGNYMWVFGGGTELTVV
pseudovirus neutralization IC50 [1]: > 10 µg/mL
pseudovirus neutralization IC50 [2]: > 10 µg/mL
pseudovirus neutralization IC50 [3]: > 10 µg/mL
pseudovirus neutralization IC50 [4]: > 10 µg/mL
pseudovirus neutralization IC50 [5]: > 10 µg/mL
pseudovirus neutralization IC50 [6]: > 10 µg/mL
pseudovirus neutralization IC50 [7]: > 10 µg/mL
pseudovirus neutralization IC50 [8]: > 10 µg/mL
pseudovirus neutralization IC50 [9]: > 10 µg/mL
pseudovirus neutralization IC50 [10]: > 10 µg/mL
pseudovirus neutralization IC50 [11]: > 10 µg/mL

B4: BD56-310 (protein)
chain 1: QMELVQSGPEVKKPGTSVKVSCKASGFTFTSSAVQWVRQARGQRLEWIGWIVVGSGNTNYAQKFQERVTITRDMSTSTAYMELSSLRSEDTAVYYCAAGGYYDSSGYSQDYYYGMDVWGQGTTVTVSS
chain 2: DIQMTQSPSSLSASVGDRVTITCQASQDISNYLNWYQQKPGKAPKLLIYDVSSLETGVPSRFTGSGSGTDFTFTISSLQPEDIATYYCQQYDNLSLTFGGGTKVEIK
pseudovirus neutralization IC50 [1]: 3.84 µg/mL
pseudovirus neutralization IC50 [2]: > 10 µg/mL
pseudovirus neutralization IC50 [3]: > 10 µg/mL
pseudovirus neutralization IC50 [4]: > 10 µg/mL
pseudovirus neutralization IC50 [5]: > 10 µg/mL
pseudovirus neutralization IC50 [6]: > 10 µg/mL
pseudovirus neutralization IC50 [7]: > 10 µg/mL
pseudovirus neutralization IC50 [8]: > 10 µg/mL
pseudovirus neutralization IC50 [9]: > 10 µg/mL
pseudovirus neutralization IC50 [10]: > 10 µg/mL
pseudovirus neutralization IC50 [11]: > 10 µg/mL

B5: BD56-336 (protein)
chain 1: QVQLQESGPGLVKPSETLSLTCTVSGDSISSYYWSWIRQPPGKGLEWIGYIYYSGSTNYKPSLKSRVTMSVDRSKNQFSLKLSSVTAADTAVYYCARGGDYGDFFDYWGQGILVTVSS
chain 2: DIVMTQSPDSLAVSLGERATINCKSSQSVLYSSNNENYLAWYQQKPGQPPMLLIYWASTRESGVPDRFSGSGSGTDFTLTISSLQAEDVAVYYCQQYYSTPLTFGGGTKVEIK
pseudovirus neutralization IC50 [1]: 0.000802 µg/mL
pseudovirus neutralization IC50 [2]: > 10 µg/mL
pseudovirus neutralization IC50 [3]: > 10 µg/mL
pseudovirus neutralization IC50 [4]: > 10 µg/mL
pseudovirus neutralization IC50 [5]: > 10 µg/mL
pseudovirus neutralization IC50 [6]: > 10 µg/mL
pseudovirus neutralization IC50 [7]: > 10 µg/mL
pseudovirus neutralization IC50 [8]: > 10 µg/mL
pseudovirus neutralization IC50 [9]: > 10 µg/mL
pseudovirus neutralization IC50 [10]: > 10 µg/mL
pseudovirus neutralization IC50 [11]: > 10 µg/mL

B6: BD56-266 (protein)
chain 1: QVQLVQSGAEVKKPGASVKVSCKVSGYTLTELSMHWVRQVPGKGLEWMGGFDPVDGEAIYAQTFQGRVTMTEDTSTDTAYMELSSLRSEDTAVYYCATAWVAPFDYWGQGTLVTVSS
chain 2: EIVMTQSPATLSVSPGERATLSCRASQSISSNLAWYQQKPGQAPRLLIYGASTRATGIPARFSGSGSGTEFTLTISSLQSEDFAVYYCQQYDNWPWTFGQGTKVEIK
pseudovirus neutralization IC50 [1]: 0.00335 µg/mL
pseudovirus neutralization IC50 [2]: 0.0347 µg/mL
pseudovirus neutralization IC50 [3]: > 10 µg/mL
pseudovirus neutralization IC50 [4]: > 10 µg/mL
pseudovirus neutralization IC50 [5]: > 10 µg/mL
pseudovirus neutralization IC50 [6]: > 10 µg/mL
pseudovirus neutralization IC50 [7]: > 10 µg/mL
pseudovirus neutralization IC50 [8]: > 10 µg/mL
pseudovirus neutralization IC50 [9]: > 10 µg/mL
pseudovirus neutralization IC50 [10]: > 10 µg/mL
pseudovirus neutralization IC50 [11]: > 10 µg/mL

B7: BD56-776 (protein)
chain 1: EVQLVESGGGLVQPGGSLRLSCAASGFTVTSNYMNWVRQAPGKGLEWVSIIYSGGRTNYADSVKGRFTISRDNSENTLYLQMNSLRDEDTAVYYCARLDWHTGFDPWGQGTLVTVSS
chain 2: SSVLTQPPSVSVAPGQAARITCGGNNIGSDSVHWYQQKPGQAPVLVVYDDTDRPSGIPERFSGSKSGNTATLTISRVEAGDEADYYCQVWDSSSDHPVVFGGGTKLTVL
pseudovirus neutralization IC50 [1]: 0.0233 µg/mL
pseudovirus neutralization IC50 [2]: 0.0302 µg/mL
pseudovirus neutralization IC50 [3]: > 10 µg/mL
pseudovirus neutralization IC50 [4]: > 10 µg/mL
pseudovirus neutralization IC50 [5]: > 10 µg/mL
pseudovirus neutralization IC50 [6]: > 10 µg/mL
pseudovirus neutralization IC50 [7]: > 10 µg/mL
pseudovirus neutralization IC50 [8]: > 10 µg/mL
pseudovirus neutralization IC50 [9]: > 10 µg/mL
pseudovirus neutralization IC50 [10]: > 10 µg/mL
pseudovirus neutralization IC50 [11]: > 10 µg/mL

B8: BD56-812 (protein)
chain 1: QVTLRESGPALVKPTQTLTLTCTFSGFSLSTSGMCVTWIRQPPGKALEWLALIDWDDDKYYSTSLKTRLTISKDTSKNQVVLTMTNMDPVDTATYYCARIVGDFYYYGMDVWGQGTTVTVSS
chain 2: SYELTQPPSVSVSPGQTARITCSGDSLPNQFAYWYQQKPGQAPVLVIYKDSERPSEIPERFSGSSSGTTVTLTISGVQAEDEADYYCQSTDSNRTPVIFGGGTTLTVL
pseudovirus neutralization IC50 [1]: 0.00329 µg/mL
pseudovirus neutralization IC50 [2]: 0.144 µg/mL
pseudovirus neutralization IC50 [3]: 0.137 µg/mL
pseudovirus neutralization IC50 [4]: 0.184 µg/mL
pseudovirus neutralization IC50 [5]: 0.121 µg/mL
pseudovirus neutralization IC50 [6]: 0.137 µg/mL
pseudovirus neutralization IC50 [7]: 7.19 µg/mL
pseudovirus neutralization IC50 [8]: 0.163 µg/mL
pseudovirus neutralization IC50 [9]: 0.138 µg/mL
pseudovirus neutralization IC50 [10]: > 10 µg/mL
pseudovirus neutralization IC50 [11]: > 10 µg/mL

B9: BD56-813 (protein)
chain 1: EVQLVESGGGLVQPGRSLRLSCTTSGFTFGDFAMSWFRLAPGKGLEWVGFIRRKAYGGTTDYAASVKGRFTISRDDSKSIAYLQMNSLKTEDTAVYYCARVGICSGGSCDQFYYYGMDVWGQGSTVTVSS
chain 2: DIQMTQSPSSLSASVGDRVTITCQASQDSSNYLDWYQQKPGKAPKRLIYDASNLETGVPSRFSGSGSGTDFTFTISSLQPEDIATYYCQQYHDLPITFGQGTRLEIK
pseudovirus neutralization IC50 [1]: 0.00141 µg/mL
pseudovirus neutralization IC50 [2]: 0.0026 µg/mL
pseudovirus neutralization IC50 [3]: 0.219 µg/mL
pseudovirus neutralization IC50 [4]: 0.61 µg/mL
pseudovirus neutralization IC50 [5]: 0.377 µg/mL
pseudovirus neutralization IC50 [6]: > 10 µg/mL
pseudovirus neutralization IC50 [7]: > 10 µg/mL
pseudovirus neutralization IC50 [8]: > 10 µg/mL
pseudovirus neutralization IC50 [9]: > 10 µg/mL
pseudovirus neutralization IC50 [10]: > 10 µg/mL
pseudovirus neutralization IC50 [11]: > 10 µg/mL

B10: BD56-816 (protein)
chain 1: QVQLLESGPGLVKPSQTLSLTCTVSGGSISSGAYYWNWIRQLPGKGLEWIGYIYDSGSTYYNPSLKSRVTISVDTSKNQFSLKLSSVTAADTAVYYCARDKVAGLDYGDLYAFDIWGQGTMVTVSS
chain 2: B5 chain 2 with N34D, E36K, M51K, S99N, T100I, L102R, G106Q, V110L
pseudovirus neutralization IC50 [1]: 0.00299 µg/mL
pseudovirus neutralization IC50 [2]: > 10 µg/mL
pseudovirus neutralization IC50 [3]: > 10 µg/mL
pseudovirus neutralization IC50 [4]: > 10 µg/mL
pseudovirus neutralization IC50 [5]: > 10 µg/mL
pseudovirus neutralization IC50 [6]: > 10 µg/mL
pseudovirus neutralization IC50 [7]: > 10 µg/mL
pseudovirus neutralization IC50 [8]: > 10 µg/mL
pseudovirus neutralization IC50 [9]: > 10 µg/mL
pseudovirus neutralization IC50 [10]: > 10 µg/mL
pseudovirus neutralization IC50 [11]: > 10 µg/mL
